PubChem BioAssay AID1259414, Drosophila RNAi Screening Center – 2018

Test: 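Host factors increasing or decreasing Wolbachia levels in cultured fly cells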 (primary screen)
System: Drosophila JW18 cells infected with Wolbachia
Knock-down reagent: long dsRNA against Drosophila genes, 0.25 µg dsRNA per well of a 384-well plate
Timing: 5 days
Conditions: cells persistently infected with Wolbachia before knock-down; no added drug
Measured: 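Imaged fluorescence in situ signal for Wolbachia 23S rRNA per DAPI-counted host cell, given as a robust z-score within each plate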
Scale: Wolbachia per cell robust z: higher = more Wolbachia per host cell than the plate typical
Hit rule: 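Hit when robust z is 1.5 or more, or -1.5 or less, in at least two of three replicates; excludes dsRNAs with several or no targets, genes not expressed in JW18 and well A1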
The screen tested about 24,000 reagents; below is a random part of those that have a named target and a result. Over the whole deposit, about 1,210 (5%) were called active. 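Inactive calls also include excluded dsRNAs with several or no targets, genes unexpressed in JW18, and well A1, regardless of score.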 Reagents against one gene are numbered here. Names joined by + are all predicted targets of the reagent.

Target gene,reagent no.,"Wolbachia per cell robust z, rep 1","Wolbachia per cell robust z, rep 2","Wolbachia per cell robust z, rep 3",call
RpL7A,1,2.02,3.17,2.19,active
RpL7A,2,1.93,3.42,3.29,active
Pvf1,1,0.88,-1.52,-0.284,inactive
Swip-1,1,0.0191,-1.19,-0.373,inactive
Swip-1,2,-0.818,0.904,1.14,inactive
side,1,0.151,-0.306,0.465,inactive
side,2,0.0897,-0.81,-3.73,inactive
side,3,-0.875,0.198,-0.127,inactive
side,4,-0.664,-3.51,0.25,inactive
side,5,-3.24,-1.43,0.637,inactive
CG13018,1,1.05,1.42,-2.54,inactive
Dro,1,-0.00391,-3.81,0.177,inactive
Dro,2,-0.782,-6.05,-0.403,inactive
CG4660,1,-0.143,-0.684,-3.62,inactive
CG15673,1,0.839,-0.174,0.0142,inactive
Gba1b,1,-0.788,-0.941,-0.251,inactive
CG9586,1,1.24,-0.943,-0.341,inactive
CG9586,2,0.25,-6.61,-0.789,inactive
CG10936,1,0.901,-0.23,0.0291,inactive
CG10936,2,-6.14,0.374,0.325,inactive
CG10936,3,-3.02,-0.2,-2.51,inactive
CG1909,1,-1.51,0.742,-5.06,active
CG1324,1,0.601,-0.245,-0.55,inactive
CG1324,2,-0.0137,0.187,-0.388,inactive

Continued (6 carried over from the part before).
Target gene,reagent no.,"Wolbachia per cell robust z, rep 1","Wolbachia per cell robust z, rep 2","Wolbachia per cell robust z, rep 3",call
CG10936,1,0.901,-0.23,0.0291,inactive
CG10936,2,-6.14,0.374,0.325,inactive
CG10936,3,-3.02,-0.2,-2.51,inactive
CG1909,1,-1.51,0.742,-5.06,active
CG1324,1,0.601,-0.245,-0.55,inactive
CG1324,2,-0.0137,0.187,-0.388,inactive
THG,1,1.64,0.579,-0.0161,inactive
Tdc1,1,0.769,0.632,0.0907,inactive
CG32718,1,-0.0982,-0.187,0.276,inactive
CG15912,1,-1.62,-8.32,-0.124,active
CG15912,2,0.746,0.00858,1.09,inactive
CG15912,3,-0.608,-0.163,0.4,inactive
CG6972 + CCAP,1,-0.0297,-0.457,1.25,inactive
Acf,1,0.228,-3.53,-0.424,inactive
Acf,2,-3.55,-0.398,-0.728,inactive
Cbp80,1,-0.543,0.0424,-0.965,inactive
yellow-h,1,0.482,-0.254,-1.01,inactive
Men-b,1,0.627,-1.79,0.639,inactive
MED31,1,1.76,0.388,0.961,inactive
His-Psi:CR31616 + His-Psi:CR31615,1,1.88,2.45,0.593,inactive
Vps60,1,0.434,0.603,1.01,inactive
knon,1,-2.07,0.353,0.482,inactive
CG9727,1,-0.555,-0.711,-0.363,inactive
CG9727,2,0.0267,-0.449,-0.839,inactive
miple1,1,0.976,-1.16,-0.496,inactive
Blos3,1,0.83,0.838,-1.06,inactive
Blos3,2,-3.1,0.404,-0.717,inactive
CG18547,1,0.783,-0.417,-0.0024,inactive
Mob3,1,-3.2,-6.19,0.764,active
CG15642,1,0.779,1.01,-4.89,inactive
CG15642,2,1.27,0.774,0.98,inactive
CG13898,1,0.0135,0.186,0.312,inactive
CCT1,1,0.169,0.216,1.01,inactive
CCT1,2,0.32,0.127,-0.498,inactive
Pp1-87B,1,4.79,3.81,5.8,active
Pp1-87B,2,-2.69,-1.43,0.437,inactive
Pp1-87B,3,-1.56,-1.18,-1.5,inactive
CatB,1,-2.51,-3.34,-3.01,inactive
CatB,2,1.19,1.37,0.963,inactive
CG30345,1,-0.108,-0.0984,0.499,inactive
wts,1,-1.47,-2.48,-0.999,inactive
wts,2,-0.861,0.00451,-1.41,inactive
CG7031,1,0.444,0.558,-3.7,inactive
CG7031,2,0.926,0.662,-1.1,inactive
Rab27,1,-1.22,-3.64,-0.814,inactive
CG15554,1,-3.18,-0.0837,0.697,inactive
nmdyn-D6,1,0.347,-0.539,0.668,inactive
nmdyn-D6,2,-0.895,0.464,1.18,inactive
PpD5,1,-0.229,0.323,-0.332,inactive
PpD5,2,-0.211,0.351,-0.587,inactive
